Laboratory results: publication PMC7242495
For at least one entry, the source does not settle the construct or the ends of the probe. At least one verdict rests on a figure or table, not on a statement of the authors.

Tested on: CadR (Pseudomonas aeruginosa)
Assay: EMSA
Details: Zn added, 250 nM CadR, EMSA: 10 mM Tris pH 8.0, 40 mM KCl, 10 mM MgCl2, 1 mM DTT, 5% glycerol, 25 ng DNA, +/- Zn or EDTA, 30 min room temperature, gel at 4 C, recombinant protein, residues 1-156, probe letters rebuilt from the primers and the genome

## CCATGATCATGTCCGTGACCGTGACCGTGACAGCAAGTGTCGGCGTGTTCGTGGCTCATGGAAACAATTCCCGTTTGACGTGTTGGGTGCGATTGCACACCCTGTAGCAACTACAGAGTCAAGCGGTACTGCCAATTCGGGTAGCCGCGTCGGCGATTGGAGGAGGGTTGGCATGAAGATCGGTGAGCTGGCGAAGAGAACCGGTT (double strand) [pcadA WT promoter (EMSA)]
  binding result: binds
